Data: US20170073375A1

Key:
[1] = molecular target: Hemagglutinin (HA) of A/Adachi/2/1957 H2N2 (Influenza A virus A/Adachi/2/1957 (H2N2))
[2] = molecular target: Hemagglutinin (HA) of A/Vietnam/1203/2004 H5N1 (Influenza A virus A/Vietnam/1203/2004 (H5N1))

B1: HB36.5 (designed binder)
chain: MSNAMDGQQLNRLLLEWIGAWDPFGLGKDAYDYEAAEVLKAVYETESAFDLAMRIHWIYNFAFKRQIPFAHAQKLARRLLELKQAASSPLP
**Q.** Which results are given for B1?
**A.** Kd [1]: 712 nM; Kd [2]: 225 nM
